Pooled drug test results. Numbers come from NIAID ChemDB, via PubChem.

All rows: whole-cell or culture tests; agent: HIV-1

ECn is the concentration giving n% inhibition of infection, replication or growth. Two numbers with a dash give a range or band. Conditions beyond the fields shown may differ between rows. An empty or dashed field is not shown.

smiles,setting,strain or isolate,read by,read-out,changes,cells,value
O=S(=O)(O)OCC1OC2OC3C(COS(=O)(=O)O)OC(OC4C(COS(=O)(=O)O)OC(OC5C(COS(=O)(=O)O)OC(OC6C(COS(=O)(=O)O)OC(OC7C(COS(=O)(=O)O)OC(OC8C(COS(=O)(=O)O)OC(OC1C(OS(=O)(=O)O)C2OS(=O)(=O)O)C(OS(=O)(=O)O)C8OS(=O)(=O)O)C(OS(=O)(=O)O)C7OS(=O)(=O)O)C(OS(=O)(=O)O)C6OS(=O)(=O)O)C(OS(=O)(=O)O)C5OS(=O)(=O)O)C(OS(=O)(=O)O)C4OS(=O)(=O)O)C(OS(=O)(=O)O)C3OS(=O)(=O)O,-,-,p24,EC50,-,PBMC,4.5 µg/mL
C[C@H](NC(=O)[C@@H]1CCCN1C(=O)[C@@H](NC(=O)[C@@H](NC(=O)[C@@H](N)CC(=O)O)[C@@H](C)O)[C@@H](C)O)C(=O)O,7 d,JR-CSF,p24,EC50,-,PBMC (PHA stimulated) + PBMC,>0.1 µM
CC(=O)OC[C@H]1OC(n2cnc3c(Cl)nc(Cl)nc32)[C@@H]2CC=CC[C@H]12,-,LAI,-,EC50,-,CEM,5.9 µM
O=C1c2ccccc2N(Cc2ccccc2Cl)S(=O)(=O)N1COCc1ccccc1,-,IIIB,cytopathic effect,EC50,-,MT-4,17.9–32.1 µM
NCCCC[C@H](NC(=O)OCc1ccccc1)C(=O)OCc1ccccc1,-,IIIB,p24,EC50,-,C8166,>200 µM
COc1ccc(S(=O)(=O)N(CC2CCCC2)C[C@@H](O)CN(CCc2ccccc2)C(=O)OCc2ccccc2)cc1,-,IIIB,p24,EC90,-,CEM,1 µM
O=c1[nH]c(=O)n([C@H]2O[C@H](CO)[C@H]3CC=CC[C@H]32)cc1/C=C/Br,-,LAI,-,EC50,-,CEM,34.2 µM
COc1cccc(F)c1C1SCC(=O)N1c1cccc(C)c1,-,IIIB,cytopathic effect,EC50,-,MT-4,1.16 µM
N#Cc1ccc(Nc2nccc(Oc3cc4ccc(Br)cc4cc3Br)n2)cc1,-,IIIB,MTT,EC50,WT,MT-4,0.005 µM
COc1cc2c(cc1Cc1cccc(Cl)c1F)c(=O)c(C(=O)O)cn2[C@H](CO)C(C)C,-,LAI,luminescence,EC50,3'-PPT mutations,TZM-bl,0.00076 µM
CNc1nc(Nc2ccc(C#N)cc2)nc(Oc2ccc3ccccc3c2)c1C(C)C,-,IIIB,MTT,EC50,WT,MT-4,0.088 µM
COc1ccc(S(=O)(=O)N(CC[C@H](O)Cc2ccccc2C(=O)NC(C)(C)C)CC(C)C)cc1,-,IIIB,p24,EC90,-,CEM,1 µM
Cc1ccnc(N2C(=O)CSC2c2c(F)cccc2F)n1,-,IIIB,cytopathic effect,EC50,-,MT-4,0.39 µM
NCCCC[C@H](NC(=O)[C@H](CCCCN)NC(=O)[C@H](CCCCN)NC(=O)c1ccccc1)C(N)=O,-,IIIB,p24,EC50,-,C8166,200 µM
COc1cc(/C=C/C(=O)CC(=O)/C=C/c2ccc(O)c(OC)c2)ccc1O,-,IIIB,-,EC50,-,PBMC,5 µM
O=S1(=O)N=C(OCc2ccc(Cl)cc2)c2ccccc2N1Cc1ccc(Cl)cc1,-,IIIB,cytopathic effect,EC50,-,MT-4,>10 µM
COc1ccc(S(=O)(=O)N(CC(C)C)C[C@@H](O)CCN(CC2CCCC2)S(=O)(=O)c2ccc3nc[nH]c3c2)cc1,-,IIIB,p24,EC90,-,CEM,1 µM
CC(=O)NC1C(O)OC(CO)C(O)C1OC1OC(C(=O)[O-])C(OC2OC(CO)C(O)C(OC3OC(C(=O)[O-])C(O)C(O)C3O)C2NC(C)=O)C(O)C1O.[Na+].[Na+],-,IIIB,syncytia,EC50,-,SUP-T1 + H9 + Sup-T1,>1000 µg/mL
Cc1ccnc(N2C(=O)CSC2c2c(F)ccc(C)c2Cl)n1,-,IIIB,syncytia,EC50,-,CEM,0.338 µM
CCCCCCCCCCCCCCCCOCCCOP(=O)(O)CO[C@H](CO)Cn1cnc2c(N)ncnc21,-,-,p24,EC50,RT-M184V,MT-2,0.03 µM
C[C@H](Cn1cnc2c(N)ncnc21)OCP(=O)(O)O,-,-,-,EC50,HX/348,TZM-bl,4.1 µM
O=c1ccn([C@@H]2O[C@H](CO)[C@H]3CC=CC[C@H]32)c(=O)[nH]1,-,LAI,-,EC50,-,CEM,67 µM
O=C1c2ccccc2N(Cc2ccccc2)S(=O)(=O)N1Cc1ccc(Cl)cc1,-,IIIB,cytopathic effect,EC50,-,MT-4,23.2–46.8 µM
COc1cccc(OC)c1C1SCC(=O)N1c1cccc(C)c1,-,IIIB,cytopathic effect,EC50,-,MT-4,1.91 µM
O=C1Nc2ccc(Cl)cc2[C@@](C#CC2CC2)(C(F)(F)F)O1,-,-,MTT,EC50,Y188L,MT-4,0.247 µM
O=C1c2ccccc2N(COCc2ccccc2)S(=O)(=O)N1Cc1ccccc1,-,IIIB,cytopathic effect,EC50,-,MT-4,5.8–7.2 µM
CNc1nc(Nc2ccc(C#N)cc2)nc(Oc2ccc3ccccc3c2Br)c1C(C)C,-,IIIB,MTT,EC50,WT,MT-4,0.106 µM
COc1cc(C(=O)N2CCN(C(=O)c3cc(OC)c(OC)c(OC)c3)C(COC(=S)N(C)C)C2)cc(OC)c1OC,-,BaL,RT activity,EC50,-,MDM,<100 µM
O=c1cc(-c2cccc3c2Sc2ccccc2S3)oc(N2CCOCC2)c1,-,RF,cytopathic effect / XTT,EC50,-,C8166,3.8 µM
N[C@@H](CCC(=O)O)C(=O)N[C@@H](CCC(=O)O)C(=O)N[C@@H](CCC(=O)O)C(=O)O,-,IIIB,syncytia,EC50,-,SUP-T1 + H9 + Sup-T1,>1000 µg/mL
CCc1c(Cl)nc(Nc2ccc(C#N)cc2)nc1Oc1ccc2cc(C#N)ccc2c1,-,IIIB,MTT,EC50,K103N + Y181C,MT-4,25.25 µM
Nc1ncnc2c1ccn2[C@@H]1C=C[C@H](CO)C1,-,-,cytopathic effect / MTS,EC50,-,MT-4,280 µM
C[C@@H]1CCO[C@H]2Cn3cc(C(=O)NCc4ccc(F)cc4F)c(=O)c(O)c3C(=O)N12,-,LAI,luminescence,EC50,3'-PPT mutations,TZM-bl,0.00085 µM
COC(=O)[C@H](C)NP(=O)(OC[C@H]1CC[C@@H](n2ccc3c(N)ncnc32)C1)Oc1ccccc1,-,-,cytopathic effect / MTS,EC50,-,MT-4,>32 µM
O=S(=O)(O)NC1C(O)OC(COS(=O)(=O)O)C(O)C1O,-,IIIB,syncytia,EC50,-,SUP-T1 + H9 + Sup-T1,>1000 µg/mL
COc1cccc(OC)c1C1SCC(=O)N1c1cccc(Br)n1,-,IIIB,cytopathic effect,EC50,-,MT-4,0.045 µM
Nc1ncnc2c1ccn2[C@@H]1CC[C@H](CO)C1,-,-,cytopathic effect / MTS,EC50,-,MT-4,>500 µM
COc1cccc(F)c1C1SCC(=O)N1c1cc(C)cc(C)n1,-,IIIB,syncytia,EC50,-,CEM,0.391 µM
CCN1c2ncc(CCOc3cccc4c3ccc[n+]4[O-])cc2C(=O)Nc2c(C)cc(Cl)nc21,-,-,p24,EC50,RT-K103N Y181C,C8166,0.022 µM
CNc1cc(Oc2ccc3cc(Br)ccc3c2)nc(Nc2ccc(C#N)cc2)n1,-,IIIB,MTT,EC50,WT,MT-4,0.359 µM
NC(=O)[C@H](CCCCNC(=O)c1c(O)cccc1C(=O)O)NC(=O)[C@H](CCCCNC(=O)c1cccc(O)c1C(=O)O)NC(=O)[C@H](CCCCNC(=O)c1cccc(O)c1C(=O)O)NC(=O)c1ccccc1,-,IIIB,p24,EC50,-,C8166,62 µM
CCCCCCCCCCCCCCCCCCOCCOP(=O)(O)CO[C@H](CO)Cn1cnc2c(N)ncnc21,-,-,p24,EC50,RT-K65R,MT-2,0.003 µM
NCCCC[C@H](NC(=O)OCc1ccccc1)C(=O)N[C@@H](CCCCN)C(=O)OCc1ccccc1,-,IIIB,p24,EC50,-,C8166,500 µM
CC(C)(C)OC(=O)N[C@H](Cc1ccccc1)/C(O)=C(\C#N)c1c(F)c(F)c(F)c(F)c1F,-,IIIB,RT activity,EC50,-,MT-4,24 µM
c1ccc(CNCCc2ccc(CN3CCNCCCCCCCNCC3)cc2)nc1,-,NL4-3,p24,EC50,-,MT-4,0.032 µg/mL
Nc1cccc(S(=O)(=O)N(CC2CCCC2)C[C@@H](O)CN(CCc2ccccc2)C(=O)OC2COCOC2)c1,-,IIIB,p24,EC50,-,CEM,<0.1 µM
COc1cccc(OC)c1C1SCC(=O)N1c1nccc(C)n1,-,IIIB,cytopathic effect,EC50,-,MT-4,0.905 µM
COc1ccc(S(=O)(=O)N(CC2CCCC2)C[C@@H](O)CN(CCC2CCCCC2)C(=O)O[C@H]2CCOC2)cc1,-,IIIB,p24,EC90,-,CEM,0.1 µM
Cc1cccc(N2C(=O)CSC2c2c(C(F)(F)F)ccc(Cl)c2F)n1,-,IIIB,syncytia,EC50,-,CEM,1.15 µM
O=C(N[C@@H](Cc1ccccc1)C(=O)C(F)(F)N(Cc1ccccc1)S(=O)(=O)c1ccccc1)OC1COCOC1,-,IIIB,p24,EC50,-,CEM,<1 µM
CCc1c(NC)nc(Nc2ccc(C#N)cc2)nc1Oc1ccc2ccccc2c1,-,IIIB,MTT,EC50,K103N + Y181C,MT-4,33.37 µM
Cc1cc(C)nc(N2C(=O)CSC2c2c(C(F)(F)F)ccc(Cl)c2F)c1,-,IIIB,cytopathic effect,EC50,-,MT-4,5.88 µM

For reference, 7 entries again:

{"smiles": "COc1cc2c(cc1Cc1cccc(Cl)c1F)c(=O)c(C(=O)O)cn2[C@H](CO)C(C)C", "strain or isolate": "LAI", "read by": "luminescence", "read-out": "EC50", "changes": "3'-PPT mutations", "cells": "TZM-bl", "value": "0.00076 µM"}
{"smiles": "COc1cccc(OC)c1C1SCC(=O)N1c1cccc(Br)n1", "strain or isolate": "IIIB", "read by": "cytopathic effect", "read-out": "EC50", "cells": "MT-4", "value": "0.045 µM"}
{"smiles": "COc1ccc(S(=O)(=O)N(CC2CCCC2)C[C@@H](O)CN(CCC2CCCCC2)C(=O)O[C@H]2CCOC2)cc1", "strain or isolate": "IIIB", "read by": "p24", "read-out": "EC90", "cells": "CEM", "value": "0.1 µM"}
{"smiles": "CCc1c(NC)nc(Nc2ccc(C#N)cc2)nc1Oc1ccc2ccccc2c1", "strain or isolate": "IIIB", "read by": "MTT", "read-out": "EC50", "changes": "K103N + Y181C", "cells": "MT-4", "value": "33.37 µM"}
{"smiles": "CNc1cc(Oc2ccc3cc(Br)ccc3c2)nc(Nc2ccc(C#N)cc2)n1", "strain or isolate": "IIIB", "read by": "MTT", "read-out": "EC50", "changes": "WT", "cells": "MT-4", "value": "0.359 µM"}
{"smiles": "CCCCCCCCCCCCCCCCOCCCOP(=O)(O)CO[C@H](CO)Cn1cnc2c(N)ncnc21", "read by": "p24", "read-out": "EC50", "changes": "RT-M184V", "cells": "MT-2", "value": "0.03 µM"}
{"smiles": "O=S(=O)(O)NC1C(O)OC(COS(=O)(=O)O)C(O)C1O", "strain or isolate": "IIIB", "read by": "syncytia", "read-out": "EC50", "cells": "SUP-T1 + H9 + Sup-T1", "value": ">1000 µg/mL"}